Measured values from several laboratories, pooled; numbers as filed in NIAID ChemDB.

Shared fields: whole-cell or culture tests; agent: Hepatitis B virus; method: PCR; read-out: EC50

Neighbouring rows are from separate reports. Two numbers with a dash give a range or band. ECn: concentration that inhibits the pathogen or its effect by n%.

structure,cell line,value
Cc1ncc(S(=O)(=O)Nc2ccc3c(C(=O)Nc4ccc(F)c(Cl)c4)n(C)nc3c2)n1C,HepAD38,100–1000 µM
C#CCNC(=O)C(=O)N1CC[C@@H](NS(=O)(=O)c2cn(C)c(C(=O)Nc3ccc(F)c(F)c3)c2F)C1,HepAD38 cells,<0.1 µM
Cc1nc2cc(-n3c(C(=O)NCc4ccccc4)c4n(c3=O)CCN(C(=O)c3ccc(Br)c(Cl)c3)C4)ccc2o1,HepG2.117,0.1–0.5 µM
C#CC1(NC(=O)C(=O)c2c(C)c(C(=O)Nc3ccc(F)c(C(F)F)c3)n(C)c2Cl)CC(F)(F)C1,HepG2.2.15,0.001–0.0099 µM
Cn1nc2cc(NCS(=O)(=O)N(CC3CC3)C3CC3)ccc2c1C(=O)Nc1ccc(F)c(Cl)c1,HepAD38,100–1000 µM
CNC(=O)C(=O)N1CCC[C@@H](NS(=O)(=O)c2cn(C)c(C(=O)Nc3cc(F)c(F)c(F)c3)c2Cl)C1,HepAD38 cells,<0.1 µM
Cn1nc2cc(NCS(=O)(=O)NCCOCCOCCO)ccc2c1C(=O)Nc1ccc(F)c(Cl)c1,HepAD38,100–1000 µM
COc1ccc(-n2c(C(=O)NCc3ccc(F)cc3C)c3n(c2=O)CCN(C(=O)c2ccc(Br)c(Cl)c2)C3)cc1,HepG2.117,0.1–0.5 µM
Cc1cccc(-n2cc(S(=O)(=O)Nc3ccc4c(C(=O)Nc5ccc(F)c(Cl)c5)n(C)nc4c3)cn2)n1,HepAD38,<100 µM
CNS(=O)(=O)N1CC[C@@H](NS(=O)(=O)c2c(F)c(C(=O)Nc3cc(F)c(F)c(F)c3)n3c2CCC3)C1,HepAD38 cells,<0.1 µM
C=CC1(NC(=O)C(=O)c2c(C)c(C(=O)Nc3ccc(F)c(C#N)c3)n(C)c2C)CC(F)(F)C1,HepG2.2.15,0.001–0.0099 µM
O=C(NCc1ccccc1-c1ncc[nH]1)c1c2n(c(=O)n1-c1ccc(OCC(F)(F)F)cc1)CCN(C(=O)c1ccc(Br)c(Cl)c1)C2,HepG2.117,<0.1 µM
C#CCNC(=O)C(=O)c1c(F)c(C(=O)Nc2ccc(F)c(C#N)c2)n(C)c1C,HepG2.2.15,0.001–0.0099 µM
CCn1cc(S(=O)(=O)N[C@@H]2CCCN(C(=O)C(N)=O)C2)c(F)c1C(=O)Nc1ccc(F)c(F)c1,HepAD38 cells,<0.1 µM
C[C@@H](NC(=O)c1c2n(c(=O)n1-c1ccc(OCC(F)(F)F)cc1)CCN(C(=O)c1ccc(Br)c(Cl)c1)C2)c1ccc(OC2COC2)cc1F,HepG2.117,0.5–5 µM
C#C[C@@](C)(NC(=O)C(=O)c1c(C)c(C(=O)Nc2ccc(F)c(C#N)c2)n(C)c1C)C(F)(F)F,HepG2.2.15,0.001–0.0099 µM
Cn1cc(S(=O)(=O)Nc2ncc3c(C(=O)Nc4ccc(F)c(Cl)c4)n(C)nc3n2)cn1,HepAD38,>1000 µM
C#CCNC(=O)C(=O)c1cn(C)c(C(=O)Nc2ccc(F)c(C#N)c2)c1C,HepG2.2.15,0.01–0.099 µM
Cn1nc2cc(NS(=O)(=O)c3cnn(-c4ncccc4F)c3)ccc2c1C(=O)Nc1ccc(F)c(Cl)c1,HepAD38,<100 µM
Cc1c(C(=O)C(=O)NC2(C#C[C@@H](C)O)COC2)c(C)n(C)c1C(=O)Nc1ccc(F)c(C#N)c1,HepG2.2.15,0.01–0.099 µM
Cn1nc2cc(NS(=O)(=O)Nc3ccccc3)ccc2c1C(=O)Nc1ccc(F)c(Cl)c1,HepAD38,100–1000 µM
C[C@H](NC(=O)c1c2n(c(=O)n1-c1ccc(OCC(F)(F)F)cc1)CCN(C(=O)c1ccc(Br)c(Cl)c1)C2)c1ccc(O[C@H](C)C(N)=O)cc1F,HepG2.117,0.1–0.5 µM
Cc1c(C(=O)C(=O)NC2(c3cn[nH]n3)CC(F)(F)C2)c(C)n(C)c1C(=O)Nc1ccc(F)c(C#N)c1,HepG2.2.15,<0.001 µM
CNC(=O)c1ccc(-n2c(C(=O)NCc3ccccc3)c3n(c2=O)CCN(C(=O)c2ccc(Br)c(Cl)c2)C3)cc1,HepG2.117,>5 µM
Cc1c(C(=O)C(=O)NC2(c3cn[nH]n3)COC2)c(C)n(C)c1C(=O)Nc1ccc(F)c(C#N)c1,HepG2.2.15,0.001–0.0099 µM
C[C@H](NC(=O)c1c2n(c(=O)n1-c1ccc(OCC(F)(F)F)cc1)CCN(C(=O)c1ccc(Br)c(Cl)c1)C2)c1ccccc1F,HepG2.117,0.5–5 µM
Cn1nc2cc(NS(=O)(=O)C3CC3)c(F)cc2c1C(=O)Nc1ccc(F)c(Cl)c1,HepAD38,>1000 µM